Results of unrelated studies side by side (data: NIAID ChemDB).

All rows: growth or infection tests; organism: Herpes simplex virus 1

ECn: concentration that inhibits the pathogen or its effect by n%.

| SMILES | read by | mutations | measure | cells | strain | result |
|---|---|---|---|---|---|---|
| O=[N+]([O-])c1cc([C@H]2C[C@H](O)[C@@H](CO)O2)c(F)cc1F | cytopathic effect | - | EC50 | E6SM | VMW 1837 | >400 µg/mL |
| C[C@@H](Cn1cnc2c(=O)[nH]c(N)nc21)OCP(=O)(O)O | cytopathic effect | - | EC50 | E6SM | KOS F McIntyre | 148 µM |
| Cc1cn([C@@H]2O[C@H](CO[Si](C)(C)C(C)(C)C)C3(O[C@H]3C(=O)NO)[C@H]2O[Si](C)(C)C(C)(C)C)c(=O)[nH]c1=O | plaque count | - | EC50 | VERO | - | >3 µM |
| CSc1nsc(-c2ccc(OCCCOc3ccc([N+](=O)[O-])cc3)cc2)c1C#N | plaque count | - | EC50 | HEP-2/L-929/VERO | F | >0.5 µM |
| COC(=O)[C@@H]1O[C@]12[C@@H](CO[Si](C)(C)C(C)(C)C)O[C@@H](n1ccc(=O)[nH]c1=O)[C@@H]2O[Si](C)(C)C(C)(C)C | plaque count | - | EC50 | VERO | - | 23 µM |
| Cc1cc([C@@H]2C[C@H](O)[C@@H](CO)O2)c(F)cc1Cl | cytopathic effect | - | EC50 | E6SM | KOS | 9.6 µg/mL |
| Nc1nc2c(ncn2C[C@@H](CO)OCP(=O)(O)O)c(=O)[nH]1 | cytopathic effect | - | EC50 | E6SM | KOS F McIntyre | 0.66 µM |
| Nc1nccc2c1ncn2[C@@H]1C=C(CO)[C@@H](O)[C@H]1O | - | - | MIC | - | KOS | >400 µg/mL |
| CC(=O)OCCOCn1c(-c2ccccc2)c(N)c(C#N)c1-c1ccccc1 | plaque count | - | EC50 | VERO | - | >300 µM |
| OC[C@H]1O[C@@H](c2cc(Br)nc3cc(Cl)c(Cl)cc23)C(O)C1O | virus yield | - | EC90 | HFF | - | 37 µM |
| CN1N=C(N)c2cn([C@@H]3O[C@H](COP(=O)(O)O)[C@@H](O)[C@H]3O)c3ncnc1c23 | ELISA | - | EC50 | BSC-1 | KOS | 20 µM |
| Nc1nc(N)c2ncn(C[C@H](CO)OCP(=O)(O)O)c2n1 | cytopathic effect | - | EC50 | E6SM | KOS F McIntyre | 14 µM |
| N=C1c2ncn([C@@H]3O[C@H](CO)[C@@H](O)[C@H]3O)c2NCN1OCc1ccc(F)cc1 | cytopathic effect | - | EC50 | KB | Strain HF | 100 µg/mL |
| N#Cc1cc(CC(=O)c2ccccc2)c(=O)n2c1sc1ccccc12 | plaque count | - | EC50 | HEF | KOS | >40 µg/mL |
| O=c1[nH]c(=O)n([C@H]2C[C@H](O)[C@@H](CO)O2)cc1/C=C\Br | cytopathic effect | - | EC50 | BHK-21 | S3 | 0.1 µg/mL |
| [N-]=[N+]=N[C@H]1[C@@H](F)[C@H](N2C=CC(N)NC2=O)O[C@@H]1CO | cytopathic effect | - | EC50 | PRK | KOS | >400 µg/mL |
| CC(=O)Nc1ccc2c(C)cc(N(C)C)nc2c1 | plaque count | - | EC50 | KB | - | 6 µg/mL |
| Nc1ncnc2c1ncn2C[C@@H](CO)OCP(=O)(O)O | - | - | MIC | - | - | 2 µg/mL |
| COC(O)[C@@H]1OC12[C@@H](CO[Si](C)(C)C(C)(C)C)O[C@@H](n1cc(C)c(=O)[nH]c1=O)[C@@H]2O[Si](C)(C)C(C)(C)C | plaque count | - | EC50 | VERO | - | >23 µM |
| Cc1cc(N(C)C)nc2cc(N)ccc12 | plaque count | - | EC50 | KB | - | 2 µg/mL |
| CN1N=C(N)c2cn([C@@H]3O[C@H](CO)[C@@H](O)[C@H]3O)c3nc(-c4ccccc4)nc1c23 | ELISA | - | EC50 | BSC-1 | KOS | >100 µM |
| Nc1nc2nn(CCOCP(=O)(O)O)nc2c(=O)[nH]1 | cytopathic effect | - | EC50 | E6SM | B2006 (TK-) | >400 µg/mL |
| COc1cccc2c1C(=O)c1c(O)c3c(c(O)c1C2=O)C[C@@](O)(C(=O)CO)C[C@@H]3O[C@H]1C[C@H](N)[C@H](O)[C@H](C)O1 | virus yield | - | EC50 | VERO | - | >1 µM |
| CC[C@@H](N(C)C(=O)[C@@H](NC(=O)[C@@H](CC(=O)[C@@H](NC(=O)[C@H](C(C)C)N(C)C(=O)[C@@H](CC1CCCCC1)C(C)C)C(C)(C)C)CC(=O)C(C)(C)C)C1(C(=O)O)CCCC1)C(C)(C)C | ELISA | - | EC50 | BHK-21 | - | 0.2 µM |
| C/C=C/Cc1cn([C@H]2C[C@H](O)[C@@H](CO)O2)c(=O)[nH]c1=O | cytopathic effect | - | EC50 | BHK-21 | S3 | 10 µg/mL |
| CN(C)c1ccc2ccc(=O)[nH]c2c1 | plaque count | - | EC50 | KB | - | 5 µg/mL |
| Nc1ncnc2c1ncn2C[C@H](CO)OCP(=O)(O)O | cytopathic effect | - | EC50 | E6SM | KOS F McIntyre | 29 µM |
| CC(C)(C)[Si](C)(C)OC[C@H]1O[C@@H](n2ccc(=O)[nH]c2=O)[C@H](O[Si](C)(C)C(C)(C)C)[C@]12O[C@@H]2CO | plaque count | - | EC50 | VERO | - | 20 µM |
| Cc1cn([C@H]2O[C@H](CO)[C@@H](N=[N+]=[N-])[C@H]2F)c(=O)nc1N | cytopathic effect | - | EC50 | PRK | KOS | >400 µg/mL |
| Nc1ccn(C[C@@H](CO)OCP(=O)(O)O)c(=O)n1 | plaque count | TK-deficient acyclovir-resistant | EC50 | HEL | KOS | 2 µM |
| COC(=O)/C=C1/[C@@H](O[Si](C)(C)C(C)(C)C)[C@H](n2ccc(=O)[nH]c2=O)O[C@@H]1CO[Si](C)(C)C(C)(C)C | plaque count | - | EC50 | VERO | - | >38 µM |
| C[C@@H](Cn1cnc2c(N)nc(N)nc21)OCP(=O)(O)O | cytopathic effect | - | EC50 | E6SM | KOS F McIntyre | 993 µM |
| OC[C@H]1O[C@@H](c2cc(F)c(F)cc2F)C[C@@H]1O | cytopathic effect | - | EC50 | E6SM | McIntyre | >400 µg/mL |
| CSc1nsc(-c2ccc(OCCc3ccccc3)cc2)c1C#N | plaque count | - | EC50 | HEP-2/L-929/VERO | F | >20 µM |
| COc1cc(F)c([C@H]2C[C@H](O)[C@@H](CO)O2)cc1[N+](=O)[O-] | cytopathic effect | - | EC50 | E6SM | F | >400 µg/mL |
| O=C(O)P(=O)(O)O | plaque count | - | EC50 | GMK | KUPKA | 91.7 µM |
| Nc1ncc2ncn(C[C@H](CF)OCP(=O)(O)O)c2n1 | cytopathic effect | - | EC50 | E6SM | KOS F McIntyre | >600 µM |
| Cc1cc([C@@H]2C[C@H](O)[C@@H](CO)O2)c(F)cc1F | cytopathic effect | - | EC50 | E6SM | VMW 1837 | >400 µg/mL |
| O=C(NCc1ccc(Cl)cc1)c1c[nH]c2c(F)cccc2c1=O | - | - | EC50 | - | ARAA13 (V813M (III)) | 1.5 µM |
| Nc1ccc2ccc(N)nc2c1 | plaque count | - | EC50 | KB | - | 4 µg/mL |
| Nc1ccn(C[C@@H](CO)OCP(=O)(O)O)c(=O)n1 | - | - | MIC | - | TK- | 2 µg/mL |
| O=C(Cc1cnc2[nH]c3ccccc3n2c1=O)c1ccccc1 | plaque count | - | EC50 | HEF | KOS | >8 µg/mL |
| CN1N=C(N)c2cn([C@@H]3O[C@H](CO)[C@@H](O)[C@H]3O)c3nc(N)nc1c23 | ELISA | - | EC50 | BSC-1 | KOS | >100 µM |
| OC[C@H]1O[C@@H](c2ccc(F)cc2F)C[C@@H]1O | cytopathic effect | - | EC50 | E6SM | McIntyre | >400 µg/mL |
| Nc1nccc2c1ncn2[C@@H]1C[C@H](CO)[C@@H](O)[C@H]1O | - | - | MIC | - | KOS | >400 µg/mL |
| O=c1c2ncn(COC(CO)CO)c2nc2[nH]c(-c3ccccc3)cn12 | cytopathic effect | - | EC50 | E6SM | KOS | 0.02 µg/mL |
| CSc1nsc(-c2ccc(OCc3ccccc3)cc2)c1C#N | plaque count | - | EC50 | HEP-2/L-929/VERO | F | >50 µM |
| CCOC(=O)c1c([N+](=O)[O-])c(-c2ccccc2)n(COCCOC(C)=O)c1C | plaque count | - | EC50 | VERO | - | >169 µM |
| Cc1c(O)c2ccc(N(C)C)cc2[nH]c1=O | plaque count | - | EC50 | KB | - | 3 µg/mL |
| CC(C)(C)[Si](C)(C)OC[C@H]1O[C@@H](n2ccc(=O)[nH]c2=O)[C@H](O[Si](C)(C)C(C)(C)C)C1(O)[C@H](N=[N+]=[N-])C(N)=O | plaque count | - | EC50 | VERO | - | >3.6 µM |
| N#Cc1c(N)c(-c2ccccc2)n(COCCO)c1-c1ccccc1 | plaque count | - | EC50 | VERO | - | >300 µM |
| OC[C@H]1O[C@@H](c2cc(I)c(F)cc2F)C[C@@H]1O | cytopathic effect | - | EC50 | E6SM | KOS/ACV-R | >400 µg/mL |
| CCOC(=O)c1ccc(OCCOc2ccc(-c3snc(SC)c3C#N)cc2)cc1 | plaque count | - | EC50 | HEP-2/L-929/VERO | F | >2 µM |
| O=C(NCc1ccc(Cl)cc1)c1c[nH]c2c(F)cc(CCCO)cc2c1=O | - | - | EC50 | - | KOS | 7.8 µM |
| Cc1cc(Cl)c2ccc(N(C)C)cc2n1 | plaque count | - | EC50 | KB | - | 3 µg/mL |
| Nc1c(-c2ccccc2)c(-c2ccccc2)n(COCCO)c1-c1ccccc1 | plaque count | - | EC50 | VERO | - | >42 µM |
| Nc1ncnc2c1ncn2[C@@H]1C=C[C@@H](O)[C@H]1O | - | - | MIC | - | KOS | 150 µg/mL |

Repeating the first 5 entries:

{"SMILES": "O=[N+]([O-])c1cc([C@H]2C[C@H](O)[C@@H](CO)O2)c(F)cc1F", "read by": "cytopathic effect", "measure": "EC50", "cells": "E6SM", "strain": "VMW 1837", "result": ">400 µg/mL"}
{"SMILES": "C[C@@H](Cn1cnc2c(=O)[nH]c(N)nc21)OCP(=O)(O)O", "read by": "cytopathic effect", "measure": "EC50", "cells": "E6SM", "strain": "KOS F McIntyre", "result": "148 µM"}
{"SMILES": "Cc1cn([C@@H]2O[C@H](CO[Si](C)(C)C(C)(C)C)C3(O[C@H]3C(=O)NO)[C@H]2O[Si](C)(C)C(C)(C)C)c(=O)[nH]c1=O", "read by": "plaque count", "measure": "EC50", "cells": "VERO", "result": ">3 µM"}
{"SMILES": "CSc1nsc(-c2ccc(OCCCOc3ccc([N+](=O)[O-])cc3)cc2)c1C#N", "read by": "plaque count", "measure": "EC50", "cells": "HEP-2/L-929/VERO", "strain": "F", "result": ">0.5 µM"}
{"SMILES": "COC(=O)[C@@H]1O[C@]12[C@@H](CO[Si](C)(C)C(C)(C)C)O[C@@H](n1ccc(=O)[nH]c1=O)[C@@H]2O[Si](C)(C)C(C)(C)C", "read by": "plaque count", "measure": "EC50", "cells": "VERO", "result": "23 µM"}

Blank or dashed fields: not listed here. Conditions beyond the fields shown may differ between rows.